Anti-infective test results gathered from many reports (values: NIAID ChemDB through PubChem).

Shared fields: whole-cell or culture tests; agent: HIV-1; cell line: MT-4; read-out: EC50

An empty or dashed field is not shown. Rows are shuffled and stem from different studies. ECn is the concentration giving n% inhibition of infection, replication or growth.

smiles	strain	changes	read by	result
CC(C)(C)NC(=O)[C@@H]1C[C@@H]2CCCC[C@@H]2CN1C[C@@H](O)[C@H](Cc1ccccc1)NC(=O)[C@@H]1CCCS(=O)(=O)C1	IIIB	-	p24	<0.2 µM
CN(C)CCNC(=O)C(NC(=O)Cc1ccccc1)[C@@H]1N[C@@H](C(=O)NCCNC(=O)[C@@H]2N[C@@H](C(NC(=O)Cc3ccccc3)C(=O)NCc3ccccc3)SC2(C)C)C(C)(C)S1	IIIB	-	cytopathic effect / MTT	30 µM
Cl.NCCn1nnc2ccccc21	IIIB	-	MTT	>100 µM
O=c1cc(CCl)nc2c3ncn([C@@H]4O[C@H](COP(=O)(O)O)[C@@H](O)[C@H]4O)c3ncn12	LAV-1	-	RT activity	>200 µM
COC(=O)C(C)(C)NP(=O)(OC[C@@H]1C=C[C@H](n2ccc3c(N)ncnc32)C1)Oc1ccccc1	IIIB	-	cytopathic effect / trypan blue	>490 µM
NCCNC(=O)c1cn([C@@H]2CS[C@@H](CO)O2)c(=O)[nH]c1=O	-	-	syncytia	>200 µM
COc1ccccc1NC(=O)c1ccccc1C(O)c1ccc(C#N)cc1	LAI	-	-	22.8 µM
CC1(C)S[C@H](C(NC(=O)Cc2ccccc2)C(=O)NCc2ccccc2)N[C@H]1C(=O)NCCNC(=O)[C@@H]1N[C@@H](C(NC(=O)Cc2ccccc2)C(=O)NCc2ccc(CO)cc2)SC1(C)C	IIIB	-	cytopathic effect / MTT	2 µM
CCc1c(Cc2cc(C)cc(C)c2)n(COCC#Cc2ccc(CO)cc2)c(=O)[nH]c1=O	IIIB	WT	MTT	0.007 µM
CC(CO)n1cnc2c(Cl)ncnc21	LAV-1	-	RT activity	>100 µM
C[C@H](NP(=O)(OC[C@H]1C=C[C@@H](n2ccc3c(N)ncnc32)C1)Oc1ccccc1)C(=O)OCc1ccccc1	IIIB	-	cytopathic effect / trypan blue	0.175 µM
COc1ccccc1NC(=O)c1ccccc1C(O)c1ccc([N+](=O)[O-])cc1	LAI	-	-	>100 µM
CC(O)CCCCCCCCCCCCCCCC(CCCCCCCCCCCCCCC1CC(=O)OCC2OC(OC(CCCCCCCCCCCCCC(CCCCCC(C)O)OC3OC(CO)C(O)C(O)C3O)CC(=O)OCC3OC(O1)C(O)C(O)C3O)C(O)C(O)C2O)OC1OC(CO)C(O)C(O)C1O	LAI	-	p24	10.35 µg/mL
COc1ccccc1NC(=O)c1ccccc1C(O)c1cccc([N+](=O)[O-])c1	LAI	-	-	>100 µM
CC1(C)S[C@H]([C@H](NC(=O)Cc2ccccc2)C(=O)NCc2ccccc2)N[C@H]1C(=O)NCCNC(=O)[C@@H]1N[C@@H]([C@H](NC(=O)Cc2ccccc2)C(=O)NCc2ccc(C(=O)O)cc2)SC1(C)C	IIIB	-	cytopathic effect / MTT	>100 µM
Cc1c(-c2c(C(OC(C)(C)C)C(=O)O)n(C)c(=O)c3[nH]ccc23)ccc2c1CCCO2	IIIB	-	MTS	0.07 µM
Cc1cn([C@@H]2CS[C@H](CO)O2)c(=O)[nH]c1=O	-	-	syncytia	>200 µM
CCc1c(Cc2cc(C)cc(C)c2)n(COCc2cn(Cc3c(F)cccc3F)nn2)c(=O)[nH]c1=O	IIIB	WT	MTT	0.07 µM
COC(=O)[C@H](C)NP(=O)(OC[C@H]1C=C[C@@H](n2ccc3c(N)ncnc32)C1)Oc1ccccc1	IIIB	-	cytopathic effect / trypan blue	0.091 µM
COc1ncnc2c1ncn2C(C)CO	LAV-1	-	RT activity	>100 µM
Cc1cn([C@H]2C[C@H](N=[N+]=[N-])[C@@H](CO)O2)c(=O)[nH]c1=O	IIIB	RES056	MTT	0.035 µM
O=c1[nH]c(=O)n([C@@H]2CS[C@@H](CO)O2)cc1I	-	-	syncytia	>100 µM
Cc1cn([C@H]2C[C@H](N=[N+]=[N-])[C@@H](CO)O2)c(=O)[nH]c1=O	-	K103N	MTT	0.019 µM
CCc1c(Cc2ccccc2C)n(COC/C(Br)=C(\Br)c2ccccc2)c(=O)[nH]c1=O	IIIB	Y181C	MTT	8 µM
CC(CO)n1cnc2c(N)ncnc21	LAV-1	-	RT activity	>100 µM
CCc1c(Cc2cc(C)cc(C)c2)n(COCC#Cc2cnccn2)c(=O)[nH]c1=O	IIIB	K103N + Y181C	MTT	11 µM
COc1ccccc1NC(=O)c1ccccc1C(O)c1ccc(OCO)c(OCO)c1	LAI	-	-	45.2 µM
Cc1cn([C@H]2C=C[C@@H](CO)O2)c(=O)[nH]c1=O	IIIB	-	-	0.2 µM
C[C@H](NP(=O)(OC[C@@H]1C=C[C@H](n2ccc3c(N)ncnc32)C1)Oc1ccccc1)C(=O)OCc1ccccc1	IIIB	-	cytopathic effect / trypan blue	>78 µM
Nc1c(-c2nccc(=O)[nH]2)ncn1[C@@H]1O[C@H](CO)[C@@H](O)[C@H]1O	LAV-1	-	RT activity	>1500 µM
COc1cc2c(c(O)c1OC)-c1c(cc(OC)c(OC)c1O)C[C@H](C)[C@H](C)C2	IIIB	-	cytopathic effect / MTT	27.6 µM
NCCNC(=O)c1cn([C@H]2CS[C@@H](CO)O2)c(=O)[nH]c1=O	-	-	syncytia	>200 µM
COC(=O)[C@H](C)NP(=O)(OC[C@@H]1C=C[C@H](n2ccc3c(N)ncnc32)C1)Oc1ccccc1	IIIB	-	cytopathic effect / trypan blue	>10 µM

The last 2 rows once more:

smiles | strain | changes | read by | result
NCCNC(=O)c1cn([C@H]2CS[C@@H](CO)O2)c(=O)[nH]c1=O | - | - | syncytia | >200 µM
COC(=O)[C@H](C)NP(=O)(OC[C@@H]1C=C[C@H](n2ccc3c(N)ncnc32)C1)Oc1ccccc1 | IIIB | - | cytopathic effect / trypan blue | >10 µM